System: SARS-CoV-2 KCDC03 strain
Experiment: SARS-CoV-2 KCDC03 challenge of Syrian hamsters
Format: in vivo

## CC(C)N1CCN(c2ccc(/C(=C(/CCCO)c3ccccc3)c3ccc(O)cc3)cc2)CC1 [DN200434]
SARS-CoV-2-challenged hamsters
  body weight loss: alleviated
hamsters
  histopathological lung lesions: effectively mitigated
  viral genome replication and progeny production in lungs: substantial reduction
hamsters, i.p., vs vehicle-treated controls
  levels of LTB4, PGE2, IL-6, TNF-α, and MCP-1 in BALF: significantly reduced
hamsters, vs virus-challenged, vehicle-treated control
  TAG levels in lung tissues: decrease

Reference: patent publication US20260183277A1, “ANTIVIRAL PHARMACEUTICAL COMPOSITION COMPRISING ERRy INHIBITOR AS ACTIVE INGREDIENT” (priority 2024, published 2026)
